Source: US20160024159A1, “Potent and selective inhibitors of Nav1.7” (published 2016)

Legend:
Assay in all cases: cell-based or functional assay
[1] = target: human voltage-gated sodium channel Nav1.3 (human) (UniProt Q9NY46)
[2] = target: human voltage-gated sodium channel Nav1.4 (human) (UniProt P35499)
[3] = target: human voltage-gated sodium channel Nav1.5 (human) (UniProt Q14524)
[4] = target: human voltage-gated sodium channel Nav1.7 (human) (UniProt Q15858)

Row | Substance | IC50 (IonWorks Quattro) [1] | IC50 (IonWorks Quattro) [2] | IC50 (IonWorks Quattro) [3] | IC50 (IonWorks Quattro) [4] | further results
1 | [Ala22]JzTx-V(1-29) (peptide; modification not given) | 0.52 µM | 0.41 µM | > 5 µM | 0.062 µM | 
2 | [Nle6;Atz(NPEG10)8]JzTx-V(1-29) (peptide; modification not given) |  |  |  |  | IC50, IonWorks Quattro electrophysiology [1]: > 7 µM; IC50, IonWorks Quattro electrophysiology [2]: > 7 µM; IC50, IonWorks Quattro electrophysiology [3]: > 7 µM; IC50, IonWorks Quattro electrophysiology [4]: 6.4 µM
3 | [1-Nal24]JzTx-V(1-29) (peptide) | 0.46 µM | 0.33 µM | > 5 µM | 0.075 µM | 
4 | [Arg22]JzTx-V(1-29) (peptide; modification not given) | 0.08 µM | 0.17 µM | 2 µM | 0.016 µM | 
5 | [Glu20;Tyr28;Nle29]JzTx-V(1-29) (peptide; modification not given) |  |  |  |  | IC50, IonWorks Quattro electrophysiology [1]: 4 µM; IC50, IonWorks Quattro electrophysiology [2]: > 5 µM; IC50, IonWorks Quattro electrophysiology [3]: > 5 µM; IC50, IonWorks Quattro electrophysiology [4]: 0.079 µM
6 | [Lys7]JzTx-V(1-29) (peptide; modification not given) | 0.31 µM | 0.43 µM | > 5 µM | 0.08 µM | 
7 | [Ala23]JzTx-V(1-29) (peptide; modification not given) | 0.44 µM | 0.34 µM | > 5 µM | 0.3 µM | 
8 | [Atz(NPEG10)1;Nle6]JzTx-V(1-29) (peptide; modification not given) |  |  |  |  | IC50, IonWorks Quattro electrophysiology [1]: 0.16 µM and 0.13 µM; IC50, IonWorks Quattro electrophysiology [2]: 0.39 µM and 0.45 µM; Nav1.4/Nav1.7 (ratio of IC50) [2]: 4 fold and 3 fold; IC50, IonWorks Quattro electrophysiology [3]: > 7 µM; IC50, IonWorks Quattro electrophysiology [4]: 0.1 µM and 0.14 µM
9 | [Arg27]JzTx-V(1-29) (peptide; modification not given) | 0.1 µM | 0.23 µM | > 5 µM | 0.028 µM | 
10 | [Glu20;Nle24;Tyr28]JzTx-V(1-29) (peptide; modification not given) |  |  |  |  | IC50, IonWorks Quattro electrophysiology [1]: > 5 µM; IC50, IonWorks Quattro electrophysiology [2]: > 5 µM; IC50, IonWorks Quattro electrophysiology [3]: > 5 µM; IC50, IonWorks Quattro electrophysiology [4]: > 5 µM
11 | [Lys17]JzTx-V(1-29) (peptide; modification not given) | 0.03 µM | 0.05 µM | 0.89 µM | 0.01 µM | 
12 | [1-Nal28]JzTx-V(1-29) (peptide; modification not given) | 0.06 µM | 0.1 µM | 3.6 µM | 0.006 µM | 
13 | [Arg24]JzTx-V(1-29) (peptide; modification not given) | 4.8 µM | 2.5 µM | > 5 µM | 5 µM | 
14 | [Glu20;Tyr28;Ser29]JzTx-V(1-29) (peptide; modification not given) |  |  |  |  | IC50, IonWorks Quattro electrophysiology [1]: > 5 µM; IC50, IonWorks Quattro electrophysiology [2]: > 5 µM; IC50, IonWorks Quattro electrophysiology [3]: > 5 µM; IC50, IonWorks Quattro electrophysiology [4]: 0.34 µM
15 | [Arg8]JzTx-V(1-29) (peptide; modification not given) | 0.05 µM | 0.14 µM | 1.7 µM | 0.018 µM | 
16 | [Arg3]JzTx-V(1-29) (peptide; modification not given) | 0.06 µM | 0.14 µM | 3.2 µM | 0.025 µM | 

Row | Substance | IC50 (IonWorks Quattro) [1] | IC50 (IonWorks Quattro) [2] | IC50 (IonWorks Quattro) [3] | IC50 (IonWorks Quattro) [4] | further results
17 | [Arg17]JzTx-V(1-29) (peptide; modification not given) | 0.04 µM | 0.06 µM | 0.95 µM | 0.014 µM | 
18 | [Lys13]JzTx-V(1-29) (peptide; modification not given) | 0.12 µM | 0.47 µM | > 5 µM | 0.064 µM | 
19 | [Lys8]JzTx-V(1-29) (peptide; modification not given) | 0.1 µM | 0.1 µM | 3.7 µM | 0.031 µM | 
20 | [1-Nal7]JzTx-V(1-29) (peptide; modification not given) | 0.1 µM | 0.12 µM | 3.6 µM | 0.013 µM | PX hNav1.4 Tonic IC50 [2]: 0.0009 µM; PX hNav1.5 Tonic IC50 [3]: 1.42 µM; PX hNav1.7 Tonic IC50 [4]: 0.0004 µM
21 | [Arg4]JzTx-V(1-29) (peptide; modification not given) | 0.07 µM | 0.16 µM | 2 µM | 0.014 µM | 
22 | [Glu20;Tyr28;2-Nal29]JzTx-V(1-29) (peptide; modification not given) |  |  |  |  | IC50, IonWorks Quattro electrophysiology [1]: 2.2 µM; IC50, IonWorks Quattro electrophysiology [2]: > 5 µM; IC50, IonWorks Quattro electrophysiology [3]: > 5 µM; IC50, IonWorks Quattro electrophysiology [4]: 0.044 µM
23 | [Lys28]JzTx-V(1-29) (peptide; modification not given) | 0.05 µM | 0.11 µM | 1.5 µM | 0.014 µM | 
24 | [Lys29]JzTx-V(1-29) (peptide; modification not given) | 2.4 µM | 1.3 µM | > 5 µM | 0.11 µM | 
25 | [Lys20]JzTx-V(1-29) (peptide; modification not given) | 0.06 µM | 0.26 µM | 3.4 µM | 0.02 µM | 
26 | [Arg1]JzTx-V(1-29) (peptide; modification not given) | 0.04 µM | 0.12 µM | 1.8 µM | 0.005 µM | 
27 | [Lys23]JzTx-V(1-29) (peptide; modification not given) | 0.14 µM | 0.29 µM | 4.1 µM | 0.24 µM | 
28 | [Ala28]JzTx-V(1-29) (peptide; modification not given) | 0.25 µM | 0.29 µM | > 5 µM | 0.03 µM | 
29 | [Glu20;1-Nal24;Tyr28]JzTx-V(1-29) (peptide; modification not given) |  |  |  |  | IC50, IonWorks Quattro electrophysiology [1]: > 7 µM; IC50, IonWorks Quattro electrophysiology [2]: > 7 µM; IC50, IonWorks Quattro electrophysiology [3]: > 7 µM; IC50, IonWorks Quattro electrophysiology [4]: 0.3 µM
30 | [Ala13]JzTx-V(1-29) (peptide; modification not given) | 0.3 µM | 0.57 µM | > 5 µM | 0.079 µM | 
31 | [Glu20;Tyr28;Asn29]JzTx-V(1-29) (peptide; modification not given) |  |  |  |  | IC50, IonWorks Quattro electrophysiology [1]: > 5 µM; IC50, IonWorks Quattro electrophysiology [2]: > 5 µM; IC50, IonWorks Quattro electrophysiology [3]: > 5 µM; IC50, IonWorks Quattro electrophysiology [4]: 0.52 µM
32 | [Lys1]JzTx-V(1-29) (peptide; modification not given) | 0.05 µM | 0.06 µM | 2.3 µM | 0.005 µM | 

Where “and” joins values, the source holds several entries; their conditions need not be identical. Identical values can stand only once.
